{
  "source": "paper PMC3276558",
  "about": "“The B-Cell Specific Transcription Factor, Oct-2, Promotes Epstein-Barr Virus Latency by Inhibiting the Viral Immediate-Early Protein, BZLF1”",
  "target": "T1, Oct-2 (UniProt P09086)",
  "T1 sequence (looked up, limits assumed)": "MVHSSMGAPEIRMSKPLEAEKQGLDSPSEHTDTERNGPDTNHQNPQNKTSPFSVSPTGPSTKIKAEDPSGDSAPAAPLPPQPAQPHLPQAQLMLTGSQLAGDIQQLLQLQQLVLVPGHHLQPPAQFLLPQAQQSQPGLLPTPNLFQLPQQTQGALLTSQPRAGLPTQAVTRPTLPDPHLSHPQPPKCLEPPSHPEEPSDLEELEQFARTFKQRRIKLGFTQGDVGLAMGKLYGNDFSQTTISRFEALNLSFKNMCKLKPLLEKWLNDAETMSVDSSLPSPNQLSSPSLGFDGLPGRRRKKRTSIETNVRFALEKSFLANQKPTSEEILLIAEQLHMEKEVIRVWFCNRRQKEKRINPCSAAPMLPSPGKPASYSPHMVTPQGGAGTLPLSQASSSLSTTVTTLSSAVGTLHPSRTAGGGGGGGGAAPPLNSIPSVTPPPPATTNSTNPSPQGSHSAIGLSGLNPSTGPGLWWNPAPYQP",
  "assay": "EMSA",
  "conditions": "EMSA with in vitro-translated protein and 32P-labelled annealed ds oligonucleotide, label: 32P (T4 PNK, 5' end)",
  "note": "The exact form of at least one protein or probe is not confirmed. At least one verdict rests on a figure or table, not on a statement of the authors. Tags and fusion partners may be left off the protein sequences shown.",
  "data": [
    {"sequence": "CAGTGATGCAAATCTTGT (double strand) [Oct probe]", "values": [
      {"measurement": "binding result", "result": "binds"}
    ]}
  ]
}
